{"source": "patent US20150376654A1", "about": "(priority 2011, published 2015)", "system": "C. autoethanogenum DSM23693 wild-type (WT), parental", "method": "To investigate whether overexpression of GroESL enhances ethanol tolerance of C. autoethanogenum DSM23693, both wild-type (WT), i.e. parental microorganism and transformed strain carrying plasmid pMTL85246-GroESL were challenged with different concentrations of ethanol (FIG. 8).\nGrowth experiments in triplicates were carried out in 50 ml PETC media (Table 1) in serum bottles sealed with rubber stoppers and 30 psi steel mill gas (collected from New Zealand Steel site in Glenbrook, NZ; composition: 44% CO, 32% N2, 22% CO2, 2% H2) in the headspace as sole energy and carbon source. […] All cultures were inoculated to the same optical density using the same pre-culture for either wild-type (parental) or transformed strain. Changes in biomass were measured spectrophotometrically at 600 nm until growth ceased. The maximum biomass of each culture was compared with the unchallenged culture.", "note": "Where two headings read alike, the source gives them in different places."}
{"smiles": "CCO", "note": "[ethanol]", "values": [{"measurement": "Ethanol produced", "setting": "all cultures of the wild-type in which ethanol was added", "value": "less than 0.14 g/L"}, {"measurement": "Total ethanol after 40 h", "setting": "ethanol at inoculation 0.09 g/L (no ethanol added)", "value": 0.81, "unit": "g/L"}, {"measurement": "Ethanol produced", "setting": "ethanol at inoculation 0.09 g/L (no ethanol added), 40 hours of growth", "value": 0.72, "unit": "g/L"}, {"measurement": "Total ethanol after 40 h", "setting": "ethanol at inoculation 14.58 g/L", "value": 14.59, "unit": "g/L"}, {"measurement": "Ethanol produced", "setting": "ethanol at inoculation 14.58 g/L, 40 hours of growth", "value": 0.01, "unit": "g/L"}, {"measurement": "Total ethanol after 40 h", "setting": "ethanol at inoculation 28.19 g/L", "value": 28.17, "unit": "g/L"}, {"measurement": "Ethanol produced", "setting": "ethanol at inoculation 28.19 g/L, 40 hours of growth", "value": -0.02, "unit": "g/L"}, {"measurement": "Total ethanol after 40 h", "setting": "ethanol at inoculation 44.89 g/L", "value": 44.93, "unit": "g/L"}, {"measurement": "Ethanol produced", "setting": "ethanol at inoculation 44.89 g/L (added around 45 g/L), 40 hours of growth", "value": 0.04, "unit": "g/L"}, {"measurement": "Total ethanol after 40 h", "setting": "ethanol at inoculation 55.19 g/L", "value": 55.33, "unit": "g/L"}, {"measurement": "Ethanol produced", "setting": "ethanol at inoculation 55.19 g/L (added around 60 g/L), 40 hours of growth", "value": 0.14, "unit": "g/L"}]}
